# Library screen at single concentrations

From ChEMBL document CHEMBL3988442, “University of Dundee, Small-Polar-MMV Screening Library” (2021).

Mtb glucose medium: 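Whole-cell growth test on Mycobacterium tuberculosis, read after 3 days in glucose-containing 7H9 medium; the read-out is not stated. Compounds at 500 µM. The record gives no direction; compounds that gave an IC50 in retests scored well above the rest, so higher reads as more growth inhibition. Size under these conditions: about 18,000 compounds, about 1,400 of them at 50% or above in at least one test.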
Mtb cholesterol medium: 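Whole-cell growth test on Mycobacterium tuberculosis, read after 4 days in a medium based on cholesterol and the lipid DPPC; the read-out is not stated. Tested at 500 µM. Higher reads as more growth inhibition (inferred: compounds with an IC50 in retests scored well above the rest). About 18,000 compounds were tested under these conditions; 5% (about 900) showed 50% or more at least once.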

Values are the deposited “Percent Effect”, in %. The controls that fix the scale are not given in the record; negative values are as filed. This is part of a subset picked to be rich in strong results. A dash means the value is not listed here; it may have been measured.

- CCNCC(C)(O)c1ccccc1 (configuration not stated) | Mtb cholesterol medium: 18.87%
- COCCS(=O)(=O)NC(C)C1CC1 (configuration not stated) | Mtb glucose medium: 6.918%
- CN(C)CCO[C@@H]1COCC[C@H]1NC(=O)C1CC=CC1 | Mtb cholesterol medium: 1.153%
- NCc1cccc(N2CCOCC2)c1 | Mtb cholesterol medium: 9.885%
- CNC(=O)C1CCCN1C(=O)c1ccccc1O (configuration not stated) | Mtb glucose medium: 14.71%
- NCc1cnc2sccn12 | Mtb cholesterol medium: 4.75%
- O=S(=O)(NCc1nccs1)N1CCc2ccccc2C1 | Mtb glucose medium: 75.93%; Mtb cholesterol medium: 54.9%
- CC(C)NC(=O)CCN(C)C(C)Cc1cnccn1 (configuration not stated) | Mtb glucose medium: 0.3464%
- CSc1ncc(CNCC2(O)CNCCOC2)n1C (configuration not stated) | Mtb cholesterol medium: 7.135%
- NC(=O)c1cc(N)cs1 | Mtb glucose medium: -34.45%
- CN(C(=O)Cn1cc(Br)cn1)C1(C#N)CCCCC1 | Mtb glucose medium: -2.881%
- O=c1ccc(F)cn1Cc1cnn(-c2ccccc2)n1 | Mtb glucose medium: -10.91%
- c1ccc(C2CNCCCO2)cc1 (configuration not stated) | Mtb glucose medium: 76.5%
- CCNc1nnc(SC(C)C)s1 | Mtb glucose medium: 84.03%; Mtb cholesterol medium: 90.82%
- Cc1nnc(SCC(=O)NCC(C)C)s1 | Mtb glucose medium: 16.04%; Mtb cholesterol medium: 11.78%
- CCOc1ncc(C(=O)NCc2ccnn2C)cc1Cl | Mtb glucose medium: 48.07%; Mtb cholesterol medium: 33%
- CS(=O)(=O)Nc1ccc(N2CCNCC2)cc1 | Mtb cholesterol medium: 24.42%
- CCCC(NC)c1ccccn1 (configuration not stated) | Mtb glucose medium: -3.697%
- COc1cc(CN2CCN(C(C)=O)CC2)cc(Br)c1O | Mtb glucose medium: -2.3%
- CNC(C)c1ccccn1 (configuration not stated) | Mtb glucose medium: 3.488%
- CCn1ccc(CN2CC[C@](C)(O)C(C)(C)C2)n1 | Mtb glucose medium: 3.901%
- CNCc1cnc(C)cn1 | Mtb glucose medium: 7.914%
- CCc1noc(CNC)n1 | Mtb glucose medium: -3.25%
- O=C1CC(c2ccccc2)NCCN1 (configuration not stated) | Mtb glucose medium: -1.871%
- CN(c1ccc(F)cc1)S(=O)(=O)N1CCCCC1 | Mtb glucose medium: 68.94%; Mtb cholesterol medium: 63.77%

Some entries from above, unchanged:

structure	Mtb glucose medium	Mtb cholesterol medium
c1ccc(C2CNCCCO2)cc1 (configuration not stated)	76.5	-
NCc1cnc2sccn12	-	4.75
CNC(C)c1ccccn1 (configuration not stated)	3.488	-